Assay results: paper PMC4140839 (PLoS ONE, 2014)

What was measured:
Experiment in all cases: purified protein
Conditions in all cases: 10 mM HEPES pH 8.0, 1 mM NiCl2, 100 nM enzyme, 25 °C
[1] = tested on: Cc1cn([C@H]2C[C@H](O)[C@@H](COP(=O)(O)Oc3ccc([N+](=O)[O-])cc3)O2)c(=O)[nH]c1=O
[2] = tested on: O=[N+]([O-])c1ccc(OP(=O)(O)O)cc1
[3] = tested on: C[N+](C)(C)CCOP(=O)([O-])Oc1ccc([N+](=O)[O-])cc1

**Q.** “RsASML (Ralstonia pseudosolanacearum GMI1000)” was tested. Which Km [1] did it give?
**A.** 2.79 ± 0.22 mM

**Q.** What about the kcat [1] of the same substance?
**A.** 2.26 s⁻¹

**Q.** What about the kcat/Km [1] of the same substance?
**A.** 811 M⁻¹ s⁻¹

**Q.** And the Km [2]?
**A.** 4.29 ± 0.27 mM

**Q.** And the kcat [2]?
**A.** 0.0335 s⁻¹

**Q.** What about the kcat/Km [2] of the same substance?
**A.** 7.83 M⁻¹ s⁻¹

**Q.** And the Km [3]?
**A.** 18.55 ± 1.41 mM

**Q.** And the kcat [3]?
**A.** 2.73 s⁻¹

**Q.** And the kcat/Km [3]?
**A.** 147 M⁻¹ s⁻¹
